From patent US20030186355A1, “Methods for selecting and producing t cell peptide epitopes and vaccines incorporating said selected epitopes” (priority 2000, published 2003)

Tested on: 20S proteasomes
Assay: Proteasome digestion assay of 26-mer synthetic peptide substrates, fragments analysed by electrospray mass spectrometry
Format: biochemical, mouse
Conditions: MuLV natural and analogue 26-mer substrates

Sequence: TGRASWKPSSSWDYITVSNNLTSDQA [26-mer substrate 5B, AKV MuLV, reference compound]
- C-terminal cleavage site by the 20S proteasome: preferential C-terminal cleavage after valine
